Drawing on ChEMBL document CHEMBL3120092, “Discovery of GS-9669, a thumb site II non-nucleoside inhibitor of NS5B for the treatment of genotype 1 chronic hepatitis C infection” (J Med Chem, 2014), this text covers EC50, CC50 and Fu for one compound.

The structures appear in SMILES notation. Only a part of the results on these compounds is given; other tests are left out.

As a reminder, the EC50 is the concentration that produces a half-maximal response. For orientation: CC50 means the concentration that lowers cell viability or growth by half. Higher therefore signals better tolerance by the cells.

In series [1] the test system is Hepatitis C virus. As to the kind of experiment: Antiviral activity against Hepatitis C virus H77 genotype 1a infected in human HuH7 cells assessed as intrinsic antiviral potency after 72 hrs by luciferase reporter gene assay. Particulars: huh-7; strain genotype 1a H77, Huh-7. For orientation: In a reporter assay the amount or activity of a reporter protein is the signal.

Series [2] concerns Hepatitis C virus. Nature of the series: Antiviral activity against Hepatitis C virus H77 genotype 1a infected in human HuH7 cells assessed as observed antiviral potency after 72 hrs by luciferase reporter gene assay. Conditions: huh-7; strain genotype 1a H77, Huh-7.
In series [3] the test system is Hepatitis C virus. Nature of the series: Antiviral activity against Hepatitis C virus Con1 genotype 1b infected in human HuH7 cells after 72 hrs by luciferase reporter gene assay. Particulars: huh-7; strain isolate Con1, Huh-7.
The next series concerns Huh-7. As to the kind of experiment: Cytotoxicity against human HuH7 cells after 3 days by Cell Titre Glo assay. The format is cell-based. Conditions: huh-7, 72 h.
The next series has as its system MT4. As to the kind of experiment: Cytotoxicity against human MT4 cells after 5 days by Cell Titre Glo assay. The format is cell-based. Particulars: mt4, 120 h.
Series [4] in a line: Fraction unbound in cell culture medium at 2 uM at pH 7.4 by equilibrium dialysis method. Conditions: pH 7.4, 2 µM. A general note: In equilibrium dialysis free small molecules cross a membrane that holds back macromolecules.

On to `CN1CCC(N(c2cc(C#CC(C)(C)C)sc2C(=O)O)C(=O)[C@H]2CC[C@H](C)CC2)CC1`, for which the EC50 with Hepatitis C virus [1] worked out at 11 nM; in the series on Hepatitis C virus [2] it was 15 nM; in the series with Hepatitis C virus [3] it was 2 nM. Further, the CC50 in the series with Huh-7 is at least 20000 nM; in the series on MT4, above 20000 nM. This compound gave a Fu in series [4] of 0.71.
